# Reference: paper PMC5704035 (Biochemistry and Biophysics Reports, 2017)
# What was measured:
# [1] = tested on: CN(C)c1ccc(N=Nc2ccccc2C(=O)O)cc1; test: purified protein; details: 1 mM NADH, FMN, potassium phosphate pH 7.1, room temperature
# [2] = tested on: NC(=O)C1=CN([C@@H]2O[C@H](COP(=O)(O)OP(=O)(O)OC[C@H]3O[C@@H](n4cnc5c(N)ncnc54)[C@H](O)[C@@H]3O)[C@@H](O)[C@H]2O)C=CC1; test: purified protein; details: 30 µM methyl red, FMN, potassium phosphate pH 7.1, room temperature
Substance,Km [1] [µM],kcat [1] [s⁻¹],kcat/Km [1] [M⁻¹ s⁻¹],Km [2] [µM],kcat [2] [s⁻¹],kcat/Km [2] [M⁻¹ s⁻¹]
AzoA (Enterococcus faecalis V583; N121Q),29,72.6,2.5e+06,370.9,72.6,200000
AzoA (Enterococcus faecalis V583; N121Q/R21K),33.8,44.3,1.31e+06,,,
AzoA (Enterococcus faecalis V583; N121Q/R21G),16.3,95.3,5.85e+06,190.4,95.3,500000
AzoA (Enterococcus faecalis V583; N121A/R21K),31,43,1.39e+06,,,
AzoA (Enterococcus faecalis V583; N121A/R21G),10.8,74.7,,79.5,74.7,
AzoA (Enterococcus faecalis V583; R21K),19.5,45.9,2.35e+06,121.8,45.9,380000
